Percent effect of library compounds

Data taken from ChEMBL document CHEMBL3988442, “University of Dundee, Small-Polar-MMV Screening Library” (2021).

A: 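Whole-cell growth test on Mycobacterium tuberculosis, read after 3 days in glucose-containing 7H9 medium; the read-out is not stated. Compounds at 50 µM. Direction is inferred from retests: higher values go with more growth inhibition. Size under these conditions: about 69,000 compounds, about 760 of them at 50% or above in at least one test.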
B: 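Whole-cell growth test on Mycobacterium tuberculosis, read after 4 days in a medium based on cholesterol and the lipid DPPC; the read-out is not stated. Compounds at 50 µM. Higher reads as more growth inhibition (inferred: compounds with an IC50 in retests scored well above the rest). Of about 69,000 compounds tested this way, about 370 (0.54%) reached 50% or more in at least one test.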

Results are given as percent effect. How 0% and 100% were set is not recorded. Most values in the screen are low, and negative values occur. Many other results are left out here, so strong results are more common than in the screen. Two or more numbers in one place are separate tests of the same structure; such repeats can differ widely.

{"structure": "CCNC(=O)N1CCC2(C1)c1ccccc1S(=O)(=O)N2CCC(C)C", "stereo": "stereo unspecified", "A": -1.891, "B": 11.86}
{"structure": "COc1cccc(CN2CCCC(Nc3cccc(F)c3)C2)c1O", "stereo": "stereo unspecified", "A": 56.03}
{"structure": "O=C(COc1ccccc1)NCC1CC1", "A": 33.21}
{"structure": "Nc1ncc2c(n1)CN(C1CCCC1)C2=O", "A": 91.73, "B": 68.78}
{"structure": "c1ccc(Cc2cccc(C3CCCN3C3CCOCC3)n2)cc1", "stereo": "stereo unspecified", "A": 61.76, "B": "51.13 and 54.74"}
{"structure": "CC(CNS(N)(=O)=O)Oc1cccc(Cl)c1", "stereo": "stereo unspecified", "A": -7.851}
{"structure": "Cc1ccoc1C(=O)N1CCCc2c(c(=O)n(C)n2C)C1", "B": "0.8477 and -17.46"}
{"structure": "COc1ccc(C(=O)NCCCC2(C3OCCO3)CCOCC2)cc1", "A": "11.92 and 111.8"}
{"structure": "Cc1nc(NC(=O)COCC2CC2)ccc1Br", "A": 43.64}
{"structure": "O=C1NC2(CCCN(C(=O)CCn3cncn3)C2)Oc2ccccc21", "stereo": "stereo unspecified", "B": "0.337 and -1.921"}
{"structure": "[H][C@]12CC[C@]([H])(CN(Cc3ccc(Cn4cccn4)cc3)C1)N(CCC)C2", "A": 38.83, "B": -2.171}
{"structure": "CCc1ccccc1CNC(=O)CNC(=O)C(C)(C)C", "A": -0.3959}
{"structure": "CO[C@@H]1CCN(c2nnc(C)s2)C[C@@H]1Cc1ccccc1.O=C(O)C(F)(F)F", "A": "53.46 and 53.06", "B": 49.55}
{"structure": "CCN(CC)C(=O)CSc1nnc(CCNC(=O)OC(C)(C)C)o1", "A": -4.775, "B": -17.24}
{"structure": "O=C(c1cn[nH]c1)N1CCC2(CCCN(Cc3ccc(F)c(F)c3)C2)C1", "stereo": "stereo unspecified", "A": 12.7}
{"structure": "COC1(CNC(=O)c2ccc(F)c(F)c2)CCSC1", "stereo": "stereo unspecified", "B": 15.05}
{"structure": "COc1cccc(-c2noc3c2CN(c2ncnc4c2CCC4)CC3)c1", "A": 21.03}
{"structure": "COC1CCN(Cc2csc(C(C)C)n2)CC1", "A": -29.64}
{"structure": "CCOc1cc(C(=O)n2cccn2)cc(OCC)c1OCC", "A": "7.435 and 31.55"}
{"structure": "CSc1nnc(N(CCC#N)CCC#N)s1", "A": "-23.45 and -3.07"}
{"structure": "O=C(Nc1ccncc1)NC1CCN(c2ccccc2OC(F)F)C1", "stereo": "stereo unspecified", "A": "32.48 and 15.89"}
{"structure": "CC(C)=CCN1CCc2onc(-c3ccc(F)c(F)c3)c2C1", "A": "-35.31 and 0.8359", "B": -16.16}
{"structure": "OCCn1nnnc1Cc1ccc(Br)cc1", "A": 41.85, "B": 18.72}
{"structure": "CCc1ccc(C(C)NC(=O)c2ccc(CS(C)(=O)=O)o2)cc1", "stereo": "stereo unspecified", "A": "31.4 and 28.26"}
{"structure": "CC(=O)N1CC(c2ncn(C(C)C)n2)c2cc(C(=O)NC(C)C)ccc21", "stereo": "stereo unspecified", "B": "-5.625 and 26.4"}
{"structure": "COc1cccc(OCCNS(=O)(=O)Cc2ccccc2)c1", "A": 8.286}
{"structure": "COCc1noc(-c2ccc(N(C)Cc3ncccc3C)nc2)n1", "B": "-1.136 and -14.03"}
{"structure": "CCN(C(=O)CN1CCCC1c1ccc(F)cc1)c1ccccc1C", "stereo": "stereo unspecified", "A": 41.36, "B": 4.393}
{"structure": "Cc1ncsc1CCC(=O)N1CCCC1c1cccnc1", "stereo": "stereo unspecified", "B": 70.67}

For reference, 2 entries once more:

{"structure": "CO[C@@H]1CCN(c2nnc(C)s2)C[C@@H]1Cc1ccccc1.O=C(O)C(F)(F)F", "A": "53.46 and 53.06", "B": 49.55}
{"structure": "O=C(c1cn[nH]c1)N1CCC2(CCCN(Cc3ccc(F)c(F)c3)C2)C1", "stereo": "stereo unspecified", "A": 12.7}